Measured values from several laboratories, pooled; numbers as filed in NIAID ChemDB.

All rows: whole-cell or culture tests; agent: Candida albicans; read-out: zone

Zones are inhibition diameters on agar. Blank or dashed fields: not listed here. Conditions beyond the fields shown may differ between rows.

SMILES | read by | tested at | strain or isolate | value
C(/C=C/c1ccccc1)=NCCNCCN=C/C=C/c1ccccc1.[I][Hg][I] | agar diffusion | 30000 µg/mL |  | 42 mm
CC(C)CCOc1ccc(C2CC(=O)c3c(O)cc(O)cc3O2)cc1 | agar diffusion / agar | 100 µg/mL | ATCC 14053 | 0 mm
CCO[C@@H]1C[C@@H]([C@H](C)[C@H]2CC[C@]3(C)C4=C(CC[C@@]23C)[C@]2(C)CC[C@H](O)C(C)(C)[C@H]2CC4)CC[C@@H]1C | agar diffusion / agar | 0.2 µg/disc | MTCC 183 | 0 mm
CCCCc1nc(Cl)c(-c2cc(-c3cc(OC)c(OC)c(OC)c3)nc3c2C(=O)c2ccccc2-3)n1Cc1ccccc1 | agar diffusion | 10 µg/disc | MTCC 7253 | 10 mm
COc1cc(C2CC(=O)c3c(O)cc(O)cc3O2)ccc1OCC=C(C)C | agar diffusion / agar | 100 µg/mL | ATCC 10231 | 0 mm
CCCCc1nc(Cl)c(-c2cc(-c3cccc4ccccc34)nc3c2C(=O)c2ccccc2-3)n1Cc1ccccc1 | agar diffusion | 10 µg/disc | MTCC 7253 | 12 mm
C=CCOc1ccc(C2CC(=O)c3c(O)cc(O)cc3O2)cc1 | agar diffusion / agar | 100 µg/mL | ATCC 14053 | 0 mm
Cc1ccc(N2NOC(=O)C2S(=O)(=O)Nc2ccc(-n3c(-c4ccc([N+](=O)[O-])cc4)nc4ccccc4c3=O)cc2)cc1 | agar diffusion | 250 µg/mL | MTCC 227 | 24 mm
C[C@@H]([C@H]1CC[C@H](C)C(=O)C1)[C@H]1CC[C@]2(C)C3=C(CC[C@@]12C)[C@]1(C)CC[C@H](O)C(C)(C)[C@H]1CC3 | agar diffusion / agar | 5 µg/disc | MTCC 183 | 26 mm
Cc1ccc(N2NOC(=O)C2S(=O)(=O)Nc2nc3ccc(F)cc3s2)cc1 | agar diffusion | 250 µg/mL | MTCC 227 | 23 mm
CCCCc1nc(Cl)c(-c2cc(-c3ccc(C)cc3)nc3c2C(=O)c2ccccc2-3)n1Cc1ccccc1 | agar diffusion | 10 µg/disc | MTCC 7253 | 10 mm
COc1ccc2nc(NS(=O)(=O)C3C(=O)ONN3c3ccc(C)cc3)sc2c1 | agar diffusion | 250 µg/mL | MTCC 227 | 21 mm
CCCCc1nc(Cl)c(-c2cc(-c3cccs3)nc3c2C(=O)c2ccccc2-3)n1Cc1ccccc1 | agar diffusion | 10 µg/disc | MTCC 7253 | 10 mm
Cc1ccc(N2NOC(=O)C2S(=O)(=O)Nc2nc3cc(C)ccc3s2)cc1 | agar diffusion | 250 µg/mL | MTCC 227 | 22 mm
C(/C=C/c1ccccc1)=NCCNCCN=C/C=C/c1ccccc1.[Cl][Hg][Cl] | agar diffusion | 10000 µg/mL |  | 24 mm

The first 2 rows once more:

SMILES,read by,tested at,strain or isolate,value
C(/C=C/c1ccccc1)=NCCNCCN=C/C=C/c1ccccc1.[I][Hg][I],agar diffusion,30000 µg/mL,,42 mm
CC(C)CCOc1ccc(C2CC(=O)c3c(O)cc(O)cc3O2)cc1,agar diffusion / agar,100 µg/mL,ATCC 14053,0 mm